The species entered for assay [1] is Rattus norvegicus. The experiment in a line: Selectivity ratio, ratio of IC50 for rat alpha7 nAChR expressed in Xenopus laevis oocytes to IC50 for rat alpha3beta2 nACHR expressed in Xenopus laevis oocytes.
The target of assay [2] is T1, Neuronal acetylcholine receptor; alpha3/beta2 (Rattus norvegicus) (UniProt P04757+P12390). The experiment in a line: Antagonist activity at rat alpha3beta2 nACHR expressed in Xenopus laevis oocytes assessed as inhibition of Ach-induced responses by measuring observed inhibitory rate constant at 10 nM at -70 mV holding potential by two electrode voltage-clamp assay. For orientation: In two-electrode clamp one electrode senses voltage and the other passes current.

The chains behind the UniProt entries cited, without tags or fusion partners.
UniProt P04757, whole entry, looked up: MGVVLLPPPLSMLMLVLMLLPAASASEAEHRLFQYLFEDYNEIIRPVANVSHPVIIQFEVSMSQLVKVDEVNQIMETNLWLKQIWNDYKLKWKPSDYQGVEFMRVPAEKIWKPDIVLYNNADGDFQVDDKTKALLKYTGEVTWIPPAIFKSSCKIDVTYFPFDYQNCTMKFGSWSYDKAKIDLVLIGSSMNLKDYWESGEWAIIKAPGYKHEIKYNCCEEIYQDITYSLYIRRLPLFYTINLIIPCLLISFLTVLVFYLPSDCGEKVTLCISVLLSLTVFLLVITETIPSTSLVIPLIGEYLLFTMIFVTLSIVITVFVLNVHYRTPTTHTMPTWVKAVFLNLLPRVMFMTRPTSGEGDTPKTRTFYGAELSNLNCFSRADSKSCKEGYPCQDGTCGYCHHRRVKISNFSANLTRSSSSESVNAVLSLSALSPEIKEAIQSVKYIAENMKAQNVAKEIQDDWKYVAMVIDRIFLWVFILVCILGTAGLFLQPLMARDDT
UniProt P12390, whole entry, looked up: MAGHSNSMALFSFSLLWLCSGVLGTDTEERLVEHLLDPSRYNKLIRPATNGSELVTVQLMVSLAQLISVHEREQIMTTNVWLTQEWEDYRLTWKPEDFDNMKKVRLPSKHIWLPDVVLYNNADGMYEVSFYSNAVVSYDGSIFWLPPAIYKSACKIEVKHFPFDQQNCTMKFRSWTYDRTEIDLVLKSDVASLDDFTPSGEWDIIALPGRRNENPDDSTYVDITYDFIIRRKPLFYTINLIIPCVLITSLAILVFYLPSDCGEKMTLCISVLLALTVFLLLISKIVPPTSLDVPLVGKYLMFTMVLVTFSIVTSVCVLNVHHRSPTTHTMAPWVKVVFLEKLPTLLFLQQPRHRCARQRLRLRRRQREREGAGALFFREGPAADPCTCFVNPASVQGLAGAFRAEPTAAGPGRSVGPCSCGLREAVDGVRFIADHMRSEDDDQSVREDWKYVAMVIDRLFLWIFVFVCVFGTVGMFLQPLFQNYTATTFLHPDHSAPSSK

The target in assay [3] is T1, Neuronal acetylcholine receptor; alpha3/beta2 (Rattus norvegicus). The experiment in a line: Reversible inhibition of rat alpha3beta2 nACHR expressed in Xenopus laevis oocytes assessed as off-rate constant at 100 nM at -70 mV holding potential by two electrode voltage-clamp assay.
The species named for assay [4] is Rattus norvegicus. The assay can be described thus: Selectivity ratio of IC50 for rat alpha6/alpha3beta2beta3 nAChR expressed in Xenopus laevis oocytes to IC50 for rat alpha3beta2 nACHR expressed in Xenopus laevis oocytes.
Assay [5] is filed under the species Rattus norvegicus. The assay can be described thus: Selectivity ratio, ratio of IC50 for rat alpha6alpha3beta4 nAChR expressed in Xenopus laevis oocytes to IC50 for rat alpha3beta2 nACHR expressed in Xenopus laevis oocytes.
Assay [6] concerns the target T1, Neuronal acetylcholine receptor; alpha3/beta2 (Rattus norvegicus). The experiment in a line: Reversible inhibition of rat alpha3beta2 nACHR expressed in Xenopus laevis oocytes assessed as half-life for enzyme recovery at 100 nM at -70 mV holding potential by two electrode voltage-clamp assay.
Assay [7] has the same target. The assay can be described thus: Antagonist activity at rat alpha3beta2 nACHR expressed in Xenopus laevis oocytes assessed as dissociation half-life at 10 nM at -70 mV holding potential by two electrode voltage-clamp assay relative to control.
For assay [8], the species on record is Rattus norvegicus. The assay can be described thus: Selectivity ratio, ratio of IC50 for rat alpha4beta2 nACHR expressed in Xenopus laevis oocytes to IC50 for rat alpha3beta2 nACHR expressed in Xenopus laevis oocytes.
For assay [9], the species on record is Rattus norvegicus. The assay can be described thus: Selectivity ratio, ratio of IC50 for rat alpha3beta4 nACHR expressed in Xenopus laevis oocytes to IC50 for rat alpha3beta2 nACHR expressed in Xenopus laevis oocytes.
The species named for assay [10] is Rattus norvegicus. The assay can be described thus: Selectivity ratio of IC50 for rat alpha6beta2 nAChR expressed in Xenopus laevis oocytes to IC50 for rat alpha3beta2 nACHR expressed in Xenopus laevis oocytes.
The species named for assay [11] is Rattus norvegicus. The experiment in a line: Selectivity ratio of IC50 for rat alpha6beta4 nAChR expressed in Xenopus laevis oocytes to IC50 for rat alpha3beta2 nACHR expressed in Xenopus laevis oocytes.

As for `CCCC[C@@H]1NC(=O)[C@H](Cc2cnc[nH]2)NC(=O)[C@@H]2CSSC[C@H](NC(=O)CN)C(=O)N[C@@H](CSSC[C@@H](C(N)=O)NC(=O)[C@H]([C@@H](C)CC)NC(=O)[C@H](CCC(=O)O)NC(=O)[C@@H]3CCCN3C(=O)[C@H](Cc3cnc[nH]3)NC(=O)[C@H](CCCCC(=O)O)NC1=O)C(=O)N[C@@H](CO)C(=O)N[C@@H](Cc1cnc[nH]1)C(=O)N1CCC[C@H]1C(=O)N[C@@H](C)C(=O)N2`, the Ratio IC50 in assay [1] was 12; in assay [4], 290; in [5], 158; in assay [8], 1620; in [9] it was 292. The K is 0.617 min⁻¹ in [2] and 0.065 min⁻¹ in assay [3]. Besides, the T1/2 in assay [6] is 10.6 min; in [7], 1.1 min.

Consider `CC[C@H](C)[C@@H]1NC(=O)[C@H](CCC(=O)O)NC(=O)[C@@H]2CCCN2C(=O)[C@H](Cc2cnc[nH]2)NC(=O)[C@H](CC(=O)O)NC(=O)[C@H](C(C)C)NC(=O)[C@H](CC(N)=O)NC(=O)[C@@H]2CSSC[C@H](NC(=O)CN)C(=O)N[C@@H](CSSC[C@@H](C(N)=O)NC1=O)C(=O)N[C@@H](CO)C(=O)N[C@@H](Cc1cnc[nH]1)C(=O)N1CCC[C@H]1C(=O)N[C@@H](C)C(=O)N2`, for which the Ratio IC50 was below 20 in [10], 12 in assay [4], below 20 in assay [11] and below 20 in assay [9].

The values are drawn from ChEMBL document CHEMBL4364262 (J Med Chem, 2019).
